In experiment [1] the target is human α7 nAChR (Homo sapiens, UniProt P36544). The experiment can be described thus: Direct radioligand assay (equilibrium binding), human α7 nAChR in GH4C1 cells.
Experiment [2] deals with L. stagnalis AChBP (Lymnaea stagnalis, UniProt P58154). The experiment can be described thus: Direct radioligand assay (equilibrium binding), L. stagnalis AChBP. To be noted: same conditions as for A. californica AChBP.

Sequences of proteins named here, by UniProt entry; tags and fusion partners are left off. Residues count along the entry.
UniProt P36544, 23-502 limits assumed: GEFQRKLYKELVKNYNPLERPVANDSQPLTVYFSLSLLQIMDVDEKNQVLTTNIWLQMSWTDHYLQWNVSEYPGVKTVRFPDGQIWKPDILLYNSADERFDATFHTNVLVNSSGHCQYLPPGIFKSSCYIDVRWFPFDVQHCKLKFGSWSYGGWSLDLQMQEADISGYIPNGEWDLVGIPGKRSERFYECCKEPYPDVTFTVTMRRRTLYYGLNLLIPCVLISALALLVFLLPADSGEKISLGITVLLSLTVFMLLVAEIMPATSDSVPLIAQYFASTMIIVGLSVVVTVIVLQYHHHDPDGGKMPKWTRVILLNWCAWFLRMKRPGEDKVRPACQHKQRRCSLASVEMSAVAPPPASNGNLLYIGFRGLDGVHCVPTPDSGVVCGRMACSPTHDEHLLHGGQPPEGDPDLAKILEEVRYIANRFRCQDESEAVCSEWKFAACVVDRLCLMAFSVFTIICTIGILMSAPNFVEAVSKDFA
UniProt P58154, 20-229 limits assumed: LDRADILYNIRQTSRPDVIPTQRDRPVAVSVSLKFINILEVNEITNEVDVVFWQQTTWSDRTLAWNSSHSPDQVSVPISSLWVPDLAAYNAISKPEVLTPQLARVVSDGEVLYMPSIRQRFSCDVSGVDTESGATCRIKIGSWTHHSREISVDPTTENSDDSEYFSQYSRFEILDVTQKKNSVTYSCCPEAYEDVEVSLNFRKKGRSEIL

The values below come from article PMC3210602, “Design of New α-Conotoxins: From Computer Modeling to Synthesis of Potent Cholinergic Compounds” (2011).

`C[C@@H]1NC(=O)[C@H](C)NC(=O)[C@@H]2CSSC[C@H](NC(=O)CN)C(=O)N[C@@H](CSSC[C@@H](C(N)=O)NC(=O)[C@H](Cc3ccc(O)c(I)c3)NC(=O)[C@H](CC(=O)O)NC(=O)[C@@H]3CCCN3C(=O)[C@H](CC(N)=O)NC(=O)[C@H](CC(N)=O)NC1=O)C(=O)N[C@@H](CO)C(=O)N[C@@H](Cc1c[nH]cn1)C(=O)N1CCC[C@H]1C(=O)N1CCC[C@H]1C(=O)N2`: the “binding of radioligand to human α7 nAChR (in words)” value in experiment [1] is on record as “without interacting”. Besides, the “interaction of radioligand with L. stagnalis AChBP (in words)” value in experiment [2] is listed as “without interacting”.
